Zika virus NS2B-NS3: effect of single substitutions on growth in cell culture

From the data files of Ni et al. 2025, doi:10.1038/s41467-025-63602-z.

Chain scanned (Zika virus MR766; NS2B from position 2 to 131, then the start of NS3):
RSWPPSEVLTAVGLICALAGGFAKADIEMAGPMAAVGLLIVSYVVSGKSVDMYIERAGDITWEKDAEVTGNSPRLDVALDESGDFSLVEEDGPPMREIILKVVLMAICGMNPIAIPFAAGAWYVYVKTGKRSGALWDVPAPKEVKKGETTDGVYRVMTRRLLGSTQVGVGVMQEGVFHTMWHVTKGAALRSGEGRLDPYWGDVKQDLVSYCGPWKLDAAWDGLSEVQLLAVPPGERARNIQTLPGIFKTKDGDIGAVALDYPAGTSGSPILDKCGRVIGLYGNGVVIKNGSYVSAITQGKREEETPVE

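Pools of virus carrying all single amino acid changes were selected for growth in Huh-7.5 cells. Deep sequencing gave the change in frequency of each mutant relative to wild type, averaged over three replicate libraries (two for positions 207-308). The aim was to find sites where inhibitor-binding pockets cannot change.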

Values are log2 effects on growth: 0 is wild type, lower means poorer growth.
A change reads original residue, position, new residue.
All changes here are to aspartate.
The region was split into three libraries (1-103, 104-206, 207-308).
Values above 0 are not proof of better growth: six high scorers were tested one by one, five grew less well than wild type and one about as well.
The authors count -1 or higher as tolerated. Position 1 is the last residue of NS2A.

K215D read -5.93. With L216D the assay gave -6.34. For A218D the result was -5.93. With A219D the assay gave -1.29. W220D gave -6.28. For G222D the result was -5.92. L223D read -1.33. For S224D the result was -5.40. With E225D the assay gave -6.28.

V226D read -5.62. With Q227D the assay gave -4.92. For L228D the result was -4.45. L229D gave -1.35. A230D read -5.50. V231D gave -4.71. P232D gave -4.96. P233D gave -5.37. With G234D the assay gave -4.98.

E235D gave 0.53. With R236D the assay gave 0.47. A237D gave -4.59. R238D read -5.39. With N239D the assay gave -5.39. I240D gave -6.26. Q241D gave -5.85. T242D read -5.50. For L243D the result was -4.31.

With P244D the assay gave -4.92. For G245D the result was -5.24. With I246D the assay gave -4.90. F247D gave -5.72. For K248D the result was -5.89. T249D read -4.99. K250D gave -5.05. With G252D the assay gave -5.55. With I254D the assay gave -5.98.

With G255D the assay gave -6.58. For A256D the result was -4.98. V257D read -5.00. A258D gave -3.93. For L259D the result was -4.63. Y261D read -3.59. P262D gave -4.46. With A263D the assay gave -5.98. For G264D the result was -4.42.

With T265D the assay gave -3.08.

A selection of 4 entries from above:

For L229D the result was -1.35.
For K248D the result was -5.89.
For N239D the result was -5.39.
For G255D the result was -6.58.